According to patent US5756145A, “Durable, Resilient and effective antimicrobial coating for medical devices and method of coating therefor” (priority 1995, dated 1998):

Test: HPLC measurement of residual antiseptic bonded to coated devices (Example 7)
Conditions: one week in serum, vs amount prior to incubation

| SMILES | residual amount of chloroxylenol on antiseptic-coated devices | residual amount of chlorhexidine on antiseptic-coated devices |
| --- | --- | --- |
| Cc1cc(O)cc(C)c1Cl [Chloroxylenol, 4-chloro, 3,5-dimethyl phenol] | 46.1% | – |
| [H]/N=C(\N/C(=N/[H])NCCCCCCNC(=N)NC(=N)Nc1ccc(Cl)cc1)Nc1ccc(Cl)cc1 [Chlorhexidine] | – | 44.9% |
